Source: paper PMC6002686

Key:
[1] = test system: ArcA (non-phosphorylated) (Salmonella enterica serovar Enteritidis NCTC13349); test: EMSA; conditions: non-phosphorylated, band-shift pattern differs from P-ArcA; recombinant protein; protein details: C-terminal 6xHis (pBAD-TOPO); label: none (GelRed stain); probe letters rebuilt from the primers and the genome
[2] = test system: P-ArcA (in vitro phosphorylated ArcA) (Salmonella enterica serovar Enteritidis NCTC13349); test: EMSA; conditions: phosphorylated ArcA, dose-dependent, slowest complex at 0.9 and 1.2 ug; recombinant protein; protein details: C-terminal 6xHis (pBAD-TOPO); label: none (GelRed stain); probe letters rebuilt from the primers and the genome

TCTAAGAAAACCTCATCCCGGGATTTTCAGGCAACCCTCCCGGTGATGCCAAAGAGAAAAGTGTAGTTCGTTGACAATAAATTTACATTTCTACAACTTAAAAGGGCCATTTTTGCTAAAGAAGCGAGTCAGCCCGTTTAACCTTTATCCAGGCTTGCCGACAGTAGAATTGAGATGGCTCCGCTACTTCACCCGGTGACGGCTGATTACGTTATGCCTTATCTCCTGATGACGGCTGCCAGATCACAATGCTTTGGTAAACCGGAAATGACTTTGCTTGTAACCTTCGCGAAGATAAAAACGGTGTGCATCGCGGCGTTTAATATTTGTGGAAAGCTCCGTTAGCTCGGCGCCCGCCTGACGTGCTTCTTCTTCTGCCCAGGCCAGAAGCTGACTGCCAATTTTTTGTCCCCGCATCGGCGGTAATACCACCAGCTCCTGAATTTCGCCAATCCAGTTGGCATGATGGAGATGAAACT (double strand) [complete lpxO promoter region, 480 bp]
binding result [1]: binds
binding result [2]: binds

For at least one entry, the source does not settle the construct or the ends of the probe.
